The assay can be described thus: Confirmation assay for measurement of the activity of small molecule inhibitors on Zika virus induced Caspase-3 activity in human astrocytes. From the text: National Center for Advancing Translational Sciences [NCATS] Johns Hopkins University School of Medicine Florida State University Assay Overview: Increase in the Caspase-3 activity indicates an activation of apoptosis cell death pathway caused by Zika virus infection in certain types of neuronal cells including human neural progenitor cells (hNPCs), astrocytes, and astrocytoma cell line (SNB-19). This cell-based caspase-3 activity assay measures the increased caspase-3 activity in the human astrocytes after a 6-hour Zika virus infection with a luminescence readout. A decrease in the luminescence signal in this assay by small molecule treatment indicates an inhibitory effect of that small molecule on the Zika virus induced caspase-3 activity that may correlate with its effect on reduction of Zika virus caused cell death.
Assay Protocol Summary: The medium for astrocytes contains AM basal medium (ScienCell, Cat.# 1801), AGS (ScienCell, Cat.# 1801), 10% FBS, and 1% Pen/Strep. A Caspase-Glo 3/7 assay kit (catalog number G8092; Promega, Madison, WI) was used to detect caspase-3 activity induced by Zika virus infection in human cells. […] The luminescence intensity of the assay plates was measured using a ViewLux plate reader (PerkinElmer). […] The percentage inhibitions of the increased Caspase-3 activity by small molecule inhibitors were then calculated.

Only a part is listed here, and it is no random draw. Results filed as inconclusive are left out. Where a call stands in place of a potency, no number is given. The source made the active and inactive calls. Calls follow the shape of the dose curve; as a rule, active = well fitted inhibition curve with a large enough effect; inconclusive = small, poorly fitted or top-dose-only effect; inactive = no such curve, though single readings can be large or run the other way.

Regarding `C/C1=C2N=C(/C=C3N=C(/C(C)=C4\[N-][C@@](C)([C@@H]5N=C1[C@](C)(CCC(=O)NC[C@@H](C)OP(=O)([O-])O[C@H]1[C@@H](O)[C@@H](n6cnc7cc(C)c(C)cc76)O[C@@H]1CO)[C@H]5CC(N)=O)[C@@](C)(CC(N)=O)[C@@H]4CCC(N)=O)[C@@](C)(CC(N)=O)[C@@H]\3CCC(N)=O)C(C)(C)[C@@H]/2CCC(N)=O.[C-]#N.[Co+3]`, the Potency was active: 8.69 µM.

For `CCOP(=O)(CC)Oc1ccc([N+](=O)[O-])cc1` (configuration not stated), the Potency entry is “inactive”.
